Compound potency records, mixed from different reports. Data source: NIAID ChemDB in PubChem.

Common to all: tests in culture; organism: Mycobacterium tuberculosis

Percent inhibition refers to the dose given; in toxicity tests it is the harm to the cells. MIC50, MIC90 and the like: level of inhibition, or share of isolates inhibited. MIC bound comes from a single tested concentration. An empty or dashed field is not shown. ECn is the concentration giving n% inhibition of infection, replication or growth. Rows are shuffled and stem from different studies.

compound	tested at	read-out	method	cell line	strain	result
CO[C@H]1/C=C/O[C@@]2(C)Oc3c(C)c(O)c4c(O)c(c(/C=N/N5CCN(C)CC5)c(O)c4c3C2=O)NC(=O)/C(C)=C\C=C\[C@H](C)[C@H](O)[C@@H](C)[C@@H](O)[C@@H](C)[C@H](OC(C)=O)[C@@H]1C		MIC			H37Rv	0.6 µg/mL
CNc1cccc2c1C(=O)c1ccccc1C2=O		MIC bound	BACTEC		H37Rv	>12.5 µg/mL
CCCCCn1c(C)cc(O)c(-c2ccccc2)c1=O		MIC			H37Ra	16 µg/mL
CO[C@H]1/C=C/O[C@@]2(C)Oc3c(C)c(O)c4c(=O)c(c5oc6cc(N7CCCCC7)cc(=O)c6nc5c4c3=C2O)NC(=O)/C(C)=C\C=C\[C@H](C)[C@H](O)[C@@H](C)[C@@H](O)[C@@H](C)[C@H](OC(C)=O)[C@@H]1C		MIC			H37Rv	0.035 µg/mL
Nc1c2ccccc2c[n+]2ccccc12	6.25 µg/mL	inhibition	BACTEC		H37Rv	0%
CO[C@H]1/C=C/O[C@@]2(C)Oc3c(C)c(O)c4c(=O)c(c5oc6cc(N7CCN(CC=C(C)C)CC7)cc(=O)c6nc5c4c3=C2O)NC(=O)/C(C)=C\C=C\[C@H](C)[C@H](O)[C@@H](C)[C@@H](O)[C@@H](C)[C@H](OC(C)=O)[C@@H]1C		MIC			H37Rv	0.035 µg/mL
CCOC(=O)c1cc(C(=O)c2ccccc2[N+](=O)[O-])n2c1c(Br)cc1ccccc12		MIC	resazurin		H37Rv	1 µg/mL
CCC(=O)N1C(=O)C(C)C23c4ccccc4C(=O)N2CCCN13	12.8 µg/mL	inhibition	BACTEC		H37Rv	0%
C[C@H]1NCc2cc(-c3ccc4c(=O)c(C(=O)O)cn(C5CC5)c4c3OC(F)F)ccc21		MIC90			10 strains	0.0625 µg/mL
CCCCCC1(C)SC(=O)C(C)=C1O		MIC			H37Rv	1000 µM
Clc1ccc(OC(Cn2nnc3ccccc32)c2ccc(Cl)cc2Cl)cc1		MIC	GFP / reporter gene		H37Rv	>256 µg/mL
Brc1ccc(-n2nnnc2SSc2nnnn2-c2ccc(Br)cc2)cc1		MIC			H37Rv	250 µM
O=[N+]([O-])c1cccc(C2Cc3nc4ccccc4c(-c4ccccc4)c3S2)c1		MIC	agar		H37Rv	4.06 µM
Nc1c(-c2c(Cl)cccc2Cl)[n+]([O-])c2ccccc2[n+]1[O-]		MIC		VERO	H37Rv	3.1 µg/mL
Cc1cc(C)nc(NS(=O)(=O)c2nnc3sc4ccccc4n23)c1		MIC			H37Rv	2 µg/mL
Cc1c(Cn2cnc3c(C(=O)NCC(F)F)cccc32)ncnc1N(C)C		MIC80	visual reading / absorbance		H37Rv	<0.39 µM
Cc1ccc(C)c(NS(=O)(=O)c2nnc3sc4ccccc4n23)c1		MIC			H37Rv	>200 µg/mL
CCCCCCOC(=O)c1ccccc1		MIC	visual reading		H37Rv	>512 µg/mL
O=C1c2ccccc2C(=O)c2c(-c3ccc(Cl)cc3)noc21	6.25 µg/mL	inhibition	resazurin		H37Rv	11%
Cc1cc(C)c(-n2nnnc2SSc2nnnn2-c2c(C)cc(C)cc2C)c(C)c1		MIC			H37Rv	>1000 µM
CC(=O)OC1CCn2nnc(COC(=O)NC(C)C)c21		MIC bound	resazurin		H37Rv	>6.25 µg/mL
C=C(C)CC1(C)SC(=O)C(C)=C1O		MIC			H37Rv	>1000 µM
OCCc1cn(CC(Oc2ccc(OC(F)(F)F)cc2)c2ccc(Cl)cc2Cl)nn1		MIC	GFP / reporter gene		H37Rv	>64 µg/mL
c1ccc(Oc2ccc(-c3nnc(-c4cccs4)o3)cc2)cc1		MIC	resazurin		H37Rv	3.65 µg/mL
Cc1noc(NS(=O)(=O)c2ccc(N=C3C(=O)Nc4ccccc43)cc2)c1C		MIC bound	BACTEC		H37Rv	>12.5 µg/mL
O=C(N/N=C/c1cccs1)c1ccc(Oc2ccccc2)cc1		MIC	resazurin		H37Rv	1.69 µg/mL
Cc1cc(O)c(-c2ccccc2)c(=O)n1-c1ccccc1		MIC			H37Ra	128 µg/mL
O=[N+]([O-])c1cccc(-c2nnc(/N=C\c3ccco3)s2)c1		MIC	resazurin		H37Rv	3.125 µg/mL
Cc1ccc(S(=O)(=O)N2C(=N)C(=S)N(C)C2=O)cc1		MIC bound	BACTEC		H37Rv	>12.5 µg/mL
COCCN1CCN(c2cc(=O)c3nc4c(oc3c2)c2c(=O)c3c(O)c(C)c5c(c34)=C(O)[C@@](C)(O/C=C/[C@H](OC)[C@@H](C)[C@@H](OC(C)=O)[C@H](C)[C@H](O)[C@H](C)[C@@H](O)[C@@H](C)/C=C/C=C(/C)C(=O)N2)O5)CC1		MIC			H37Rv	0.035 µg/mL
C[N+]1(CCO)CC[N+](C)(CCCN2c3ccccc3Sc3ccc(Cl)cc32)CC1.[I-].[I-]		MIC bound	BACTEC		H37Rv	>12.5 µg/mL
C=C(C)CC[C@H]1CN(c2ccn(N3CCOCC3)c2)C(=O)O1		MIC50			C.I.1104	>100 µM
CN(C)/C=C/c1c2c(nc3ccccc13)C(=O)c1ccccc1C2=O		MIC			H37Rv	0.39 µg/mL
CO[C@H]1/C=C/O[C@@]2(C)Oc3c(C)c(O)c4c(O)c(c5c(c4c3C2=O)NC2(CCN(CC(C)C)CC2)N=5)=NC(=O)/C(C)=C\C=C\[C@H](C)[C@H](O)[C@@H](C)[C@@H](O)[C@@H](C)[C@H](OC(C)=O)[C@@H]1C		MIC			H37Rv	0.035 µg/mL
c1ccc(-c2c3c(nc4ccccc24)CC(c2ccccc2)S3)cc1		MIC	agar		H37Rv	36.82 µM
CN(C)/C=C/c1c2ccccc2nc2ccccc12		MIC			H37Rv	21 µg/mL
CCCCNC(=O)c1cc([N+](=O)[O-])cc([N+](=O)[O-])c1		MBC	visual reading		H37Rv	0.5 µg/mL
O=[N+]([O-])c1ccc2sc3nnc(SCc4ccc(Cl)c(Cl)c4)n3c2c1		MIC			H37Rv	10 µg/mL
Cc1c2c(nc3ccccc13)C(=O)c1cccnc1C2=O		MIC			H37Rv	6.25 µg/mL
Cc1cc(O)c(-c2cccc(C(F)(F)F)c2)c(=O)[nH]1		MIC			H37Ra	≥256 µg/mL
Ic1ccc(-n2nnnc2SSc2nnnn2-c2ccc(I)cc2)cc1		MIC			H37Rv	125 µM
CN(C)CCc1c2c(nc3ccccc13)C(=O)c1cccnc1C2=O		MIC			H37Rv	3.13 µg/mL
S=C(Nc1ccccc1)Nc1ccc(-c2nnc(Nc3ccccc3)s2)cc1	6.25 µg/mL	inhibition			H37Rv	1%
CCC(OC(=O)Nc1ccc(S(=O)(=O)NC2CCCCC2)cc1)c1ccco1	12.5 µg/mL	inhibition	BACTEC		H37Rv	-13%
COC1=C(C)C(=O)c2cc(=O)n(C)cc2C1=O		MIC			Matsudo	1.56 µg/mL
CN(C)CCn1nc2n(c(=O)c1=O)CC(=O)N(C)c1ccc(Cl)cc1-2	6.25 µg/mL	inhibition	resazurin		H37Rv	34%
Cc1ccccc1Nc1nnc(-c2ccc(NC(=S)Nc3ccccc3)cc2)s1		EC50			H37Rv	>6.25 µg/mL
O=C(NN=C1CCCCC1)c1ccncc1		MIC			H37Rv	0.03 µg/mL
O=C(Nc1ccc2c(c1)OCCO2)N1CCC2(CC1)OCCc1sccc12		MIC90	resazurin		H37Rv	0.3 µM
C=C[C@](C)(Cl)[C@@H](Br)/C=C/[C@](C)(Cl)CBr		MIC			ATCC 35830 (ethionamide-resistant)	6.25 µg/mL
O=C(N/N=C/c1cccc2ccccc12)c1ccc(Oc2ccccc2)cc1		MIC	resazurin		H37Rv	0.98 µg/mL
CCOC(=O)C1=c2[nH]c(O)c(C(=O)OCC)c2=NC1=O		MIC bound	BACTEC		H37Rv	>12.5 µg/mL
COc1ncnc(Cn2cnc3c(C(=O)NCC(F)(F)F)cc(C)cc32)c1C		MIC80	visual reading / absorbance		H37Rv	<1.27 µM
S=C(Nc1ccccc1)Nc1ccc(-c2nnc(NCc3ccccc3)s2)cc1	6.25 µg/mL	inhibition			H37Rv	16%
O=C(N/N=C/c1ccc2c(c1)OCO2)c1ccncc1		MIC	resazurin		H37Rv	≤0.1 µg/mL
Clc1ccc(C2Cc3nc4ccc(Cl)cc4c(-c4ccccc4)c3S2)cc1		MIC	agar		MDR	3.82 µM
COC(=O)C1=C(C(=O)OC)C23CC4CCC2(C(=O)C1O3)C4(C)C	12.5 µg/mL	inhibition	BACTEC		H37Rv	18%
c1ccc(-c2c3c(nc4ccccc24)CC(c2cccc4ccccc24)S3)cc1		MIC	agar		H37Rv	32.09 µM
CC1=NN(C(=O)c2cc(Cl)cc([N+](=O)[O-])c2)C(=O)C1N=Nc1ccccc1C(=O)O	12.5 µg/mL	inhibition	BACTEC		H37Rv	2%
CO[C@H]1/C=C/O[C@@]2(C)Oc3c(C)c(O)c4c(=O)c(c5oc6cc(N(C)CCN(C)C)cc(=O)c6nc5c4c3=C2O)NC(=O)/C(C)=C\C=C\[C@H](C)[C@H](O)[C@@H](C)[C@@H](O)[C@@H](C)[C@H](OC(C)=O)[C@@H]1C		MIC			H37Rv	0.07 µg/mL
NC(=O)c1ccc(NC(=O)/C=C/C(=O)Nc2ccc(C(N)=O)cn2)nc1		MIC bound			H37Rv	>6.25 µg/mL
O=[N+]([O-])c1ccc2sc3nnc(SCc4ccc(F)cc4)n3c2c1		MIC			H37Rv	1 µg/mL
CCCCN1CCN(c2cc(=O)c3nc4c(oc3c2)c2c(=O)c3c(O)c(C)c5c(c34)=C(O)[C@@](C)(O/C=C/[C@H](OC)[C@@H](C)[C@@H](OC(C)=O)[C@H](C)[C@H](O)[C@H](C)[C@@H](O)[C@@H](C)/C=C/C=C(/C)C(=O)N2)O5)CC1		MIC			H37Rv	0.035 µg/mL
CO[C@H]1/C=C/O[C@@]2(C)Oc3c(C)c(O)c4c(O)c(c(/C=N/N5CCN(C)CC5)c(O)c4c3C2=O)NC(=O)/C(C)=C\C=C\[C@H](C)[C@H](O)[C@@H](C)[C@@H](O)[C@@H](C)[C@H](OC(C)=O)[C@@H]1C		MIC			H37Rv	2.5 µg/mL
CC1=C(O)C(C)(C2CCCC2)SC1=O		MIC			H37Rv	1000 µM
Cc1cc2cc3c(C)cc(=O)oc3c(C)c2o1		MIC bound	BACTEC		H37Rv	>12.8 µg/mL
Fc1ccc(Nc2nnc(-c3ccc(NC(=S)Nc4ccccc4)cc3)s2)cc1		EC50			H37Rv	>6.25 µg/mL
CC1=NN(C(=O)c2ccc([N+](=O)[O-])cc2)C(=O)C1N=Nc1ccccc1C(=O)O		MIC bound	BACTEC		H37Rv	>12.5 µg/mL
CCC(CC)CC1(C)SC(=O)C(C)=C1O		MIC			H37Rv	>1000 µM
Clc1ccc2nc3c(c(-c4ccccc4)c2c1)SC(c1ccccc1Cl)C3		MIC	agar		MDR	1.91 µM
CC(C)C(N)C(=O)NC(CO)C(=O)O	12.8 µg/mL	inhibition	BACTEC		H37Rv	21%
Clc1ccc(C2Cc3nc4ccc(Cl)cc4c(-c4ccccc4)c3S2)c(Cl)c1		MIC	agar		MDR	1.76 µM
Cc1cc(O)c(-c2ccc([N+](=O)[O-])cc2)c(=O)[nH]1		MIC			H37Ra	>256 µg/mL
CC(C)=CCC/C(C)=C/C1(C)SC(=O)C(C)=C1O		MIC			H37Rv	>1000 µM
CN(C)/C=C/c1c2c(nc3ccccc13)C(=O)c1cccnc1C2=O		MIC			H37Rv	3.13 µg/mL
COc1ccc(-c2c(O)cc(C)[nH]c2=O)cc1		MIC			H37Ra	>256 µg/mL
CC(C)=CCC1(C)SC(=O)C(C)=C1O		MIC			H37Rv	>1000 µM
Cc1ccc(-c2c(O)cc(C)[nH]c2=O)cc1		MIC			H37Ra	>256 µg/mL
COC(=O)[C@H]1[C@H]2C[C@@H]3c4[nH]c5ccccc5c4CCN3C[C@H]2C[C@@H](OC(=O)c2cc(OC)c(OC)c(OC)c2)[C@@H]1OC		MIC bound	BACTEC		H37Rv	>12.8 µg/mL
CCCCCCCCCCCCC1(C)SC(=O)C(C)=C1O		MIC			H37Rv	500 µM

For reference, 6 entries again:

| compound | tested at | read-out | method | cell line | strain | result |
|---|---|---|---|---|---|---|
| O=[N+]([O-])c1ccc2sc3nnc(SCc4ccc(F)cc4)n3c2c1 |  | MIC |  |  | H37Rv | 1 µg/mL |
| COC(=O)[C@H]1[C@H]2C[C@@H]3c4[nH]c5ccccc5c4CCN3C[C@H]2C[C@@H](OC(=O)c2cc(OC)c(OC)c(OC)c2)[C@@H]1OC |  | MIC bound | BACTEC |  | H37Rv | >12.8 µg/mL |
| Fc1ccc(Nc2nnc(-c3ccc(NC(=S)Nc4ccccc4)cc3)s2)cc1 |  | EC50 |  |  | H37Rv | >6.25 µg/mL |
| Clc1ccc2nc3c(c(-c4ccccc4)c2c1)SC(c1ccccc1Cl)C3 |  | MIC | agar |  | MDR | 1.91 µM |
| CC(C)=CCC1(C)SC(=O)C(C)=C1O |  | MIC |  |  | H37Rv | >1000 µM |
| CCCCCn1c(C)cc(O)c(-c2ccccc2)c1=O |  | MIC |  |  | H37Ra | 16 µg/mL |